# Measured values from PMC12799219, “In vitro and in vivo studies on the activity and selectivity of butoconazole in experimental infection by Trypanosoma cruzi” (Memórias do Instituto Oswaldo Cruz, 2026).
# System: T. cruzi intracellular forms (Tulahuen strain)
# Experiment: In vitro activity on intracellular forms of T. cruzi in L929 cells (β-galactosidase/CPRG)
# Format: cell-based, Trypanosoma cruzi
# Conditions: L929 LC50 / intracellular EC50, 96 h of incubation
# Experimental: In vitro activity on intracellular forms of T. cruzi - L929 cells previously seeded in 96-well plates (4 x 10^3 cells/well) were infected (ratio of 10 parasites:1 host cell) for 2 h with trypomastigote forms (Tulahuen strain transfected with the β-galactosidase gene, DTU VI).
row,Structure (SMILES),SI (ratio LC50/EC50)
1,"Clc1ccc(CCC(Cn2ccnc2)Sc2c(Cl)cccc2Cl)cc1 (centres unmarked) [BTZ, butoconazole]",341
2,"O=C(Cn1ccnc1[N+](=O)[O-])NCc1ccccc1 [BZ, benznidazole]",> 231
